From ChEMBL document CHEMBL1125468, “Extraordinarily potent antimalarial compounds: new, structurally simple, easily synthesized, tricyclic 1,2,4-trioxanes” (J Med Chem, 1992)

How the values were obtained:
[1] = tested on: Plasmodium falciparum; assay: Inhibition of Plasmodium falciparum D6 (Sierra Leone) by [3H]hypoxanthine uptake; assay type: functional, organism-based
[2] = tested on: Plasmodium falciparum; assay: Parasite viability index for Plasmodium falciparum Indochina W2 by [3H]hypoxanthine uptake

Structure (SMILES) | IC50 [1] [ng/mL] | IC50 [2] [ng/mL]
CO[C@H]1O[C@]2(C)CC[C@H]3CCC[C@@H](CCOP(=O)(Oc4ccccc4)Oc4ccccc4)[C@]31OO2 | 1.7 (≈ 3.37 nM) | < 0.2
CCOP(=S)(OCC)OCC[C@@H]1CCC[C@@H]2CC[C@]3(C)OO[C@]21[C@@H](OC)O3 | 3.7 (≈ 8.72 nM) | 0.4 (≈ 0.942 nM)

Converted amounts (≈) assume the structure as drawn.
